Anti-infective test results gathered from many reports (values: NIAID ChemDB through PubChem).

All rows: tests in culture; agent: Mycobacterium tuberculosis

Inhibition is in % at the dose shown (toxicity tests: loss of growth or viability). ECn: concentration that inhibits the pathogen or its effect by n%. MIC bound: limit read from a one-dose screen. Fold resistance has wild type as its base. Two numbers with a dash give a range or band. Neighbouring rows are from separate reports. MIC50, MIC90 and the like: level of inhibition, or share of isolates inhibited. Blank or dashed fields: not listed here.

compound | setting | dose | read by | mutations | measure | strain | cells | value
Cc1cc(O)c(-c2ccc(Cl)cc2Cl)c(=O)[nH]1 |  |  |  |  | MIC | H37Ra |  | >256 µg/mL
CCOC(=O)c1cc(CNc2cccc(C#N)c2)on1 |  |  | low oxygen |  | MIC | H37Rv |  | 128 µM
CO[C@H]1/C=C/O[C@@]2(C)Oc3c(C)c(O)c4c(=O)c(c5oc6cc(N7CCN(CC(C)C)CC7)cc(=O)c6nc5c4c3=C2O)NC(=O)/C(C)=C\C=C\[C@H](C)[C@H](O)[C@@H](C)[C@@H](O)[C@@H](C)[C@H](OC(C)=O)[C@@H]1C | inside macrophages | 5 µg/mL |  |  | inhibition | Kurono |  | 95.4%
O=c1nc2c(ncn2Cc2ccccc2)c(-c2ccccc2)n1Cc1ccccc1 |  |  |  |  | EC50 | H37Rv |  | >12.5 µg/mL
Nc1ccc2nc(-c3ccccc3)c(=O)oc2c1 |  | 12.5 µg/mL | BACTEC |  | inhibition | H37Rv |  | 7%
COc1ccc2c(=O)c3c(O)cc(O)cc3oc2c1O |  |  |  |  | MIC |  |  | 40 µg/mL
CCOC(=O)c1cc(CNc2cc(C(F)(F)F)nc3c(C(F)(F)F)cccc23)on1 |  |  | resazurin |  | MIC | H37Rv |  | 6.9 µM
CC1COc2c(N3CCN(C)CC3)c(F)cc3c(=O)c(C(=O)O)cn1c23 |  |  |  |  | MIC50 |  |  | 1 µg/mL
CO[C@H]1/C=C/O[C@@]2(C)Oc3c(C)c(O)c4c(c3C2=O)C(=O)C=C(NC(=O)/C(C)=C\C=C\[C@H](C)[C@H]2OC(C)(C)O[C@@H]([C@@H](C)[C@H](OC(C)=O)[C@@H]1C)[C@@H]2C)C4=O |  |  | BACTEC |  | MIC | H37Rv | VERO | 0.8 µg/mL
Cc1c(C(F)(F)F)cc2nc(C(=O)N3CCCCC3)sc2c1[N+](=O)[O-] |  |  | resazurin / absorbance |  | MBC | H37Rv |  | 1 µg/mL
CCOC(=O)c1c(N)sc2sc(-c3ccccc3)cc12 |  |  |  |  | MIC | H37Rv |  | 20.6 µM
C[C@H]1COc2c(N3CCN(C)CC3)c(F)cc3c(=O)c(C(=O)O)cn1c23 |  |  |  |  | MIC90 |  |  | 0.5–16 µg/mL
CCSC(C[C@@H](O)[C@H](O)[C@H](O)CO)SCC |  | 6.25 µg/mL |  |  | inhibition | H37Rv |  | 5%
C[C@H]1COC2(CCN(c3nc(=O)c4cc(C(F)(F)F)cc([N+](=O)[O-])c4s3)CC2)O1 |  |  | resazurin / absorbance |  | MIC80 | H37Rv |  | 0.004 µg/mL
Cl.O=C1CCC2N1CCC1CCCCN12 |  | 12.5 µg/mL | BACTEC |  | inhibition | H37Rv |  | 0%
Cc1cc(O)c(-c2cccc(C(F)(F)F)c2)c(=O)[nH]1 |  |  |  |  | MIC | H37Ra |  | ≥256 µg/mL
CO/N=C1\CN(c2nc3c(cc2F)c(=O)c(C(=O)O)cn3C2CC2)CC1CN |  |  |  |  | MIC90 |  |  | 8 µg/mL
CCc1nc2ccccc2n1CCCCOc1cccc(C)c1 |  |  | turbidity / fluorescence | QcrB T313I | MIC90 | H37Rv |  | 61 µM
COc1ncc(F)c2nc(S(=O)(=O)Nc3c(O)cccc3C(C)O)nn12 |  |  | visual reading | INH RIF resistant | MIC50 | M23 |  | 0.5 µM
CCN(CC)CCOC(=O)c1ccc(N=NC2Sc3nc4ccccc4n3C2=O)cc1.Cl |  | 12.8 µg/mL | BACTEC |  | inhibition | H37Rv |  | 16%
CCOC(=O)c1cc(-c2ccc(OC(F)(F)F)cc2)on1 |  |  | resazurin |  | MIC | H37Rv |  | 2.2 µM
NC[C@H]1O[C@H](O[C@H]2[C@H](O)[C@@H](O[C@H]3O[C@H](CO)[C@@H](O)[C@H](N)[C@H]3O)[C@H](N)C[C@@H]2N)[C@H](O)[C@@H](O)[C@@H]1O |  |  | resazurin / fluorescence | Cycloserine-resistant | MIC90 | H37Rv |  | 0.98 µg/mL
CC1COc2c(N3CCN(C)CC3)c(F)cc3c(=O)c(C(=O)O)cn1c23 |  |  | broth dilution | Bedaquiline-resistant I66M | MIC80 |  |  | 0.7 µM
Cc1ccc(OC2C(=O)N(c3ccc(Cl)c(F)c3)C2c2ccc(OCC(=O)O)cc2)cc1 |  |  | resazurin |  | MIC90 | H37Rv |  | >6.25 µg/mL
O=C(c1nc2cc(C(F)(F)F)cc([N+](=O)[O-])c2s1)N1CCCCC1 |  |  | resazurin / absorbance |  | MIC80 | H37Rv |  | 0.5 µg/mL
O=c1oc(-c2ccncc2)nn1CN1CCOCC1 |  |  | BACTEC |  | MIC bound | H37Rv |  | >12.5 µg/mL
COc1cc(O)c2c(=O)c3cc(O)c(O)c(OC)c3oc2c1 |  |  |  |  | MIC |  |  | 40 µg/mL
COC(=O)C1[C@@H](OC(=O)CC(CCCCCCCCCCC(C)C)OC(=O)CC(C)CC(=O)OC2OC(C)C(OC)C(OC)C2OC)CN(C)C([C@@H](OC2O[C@H](CN)[C@@H](O)[C@H]2O)C2OC(n3ccc(=O)[nH]c3=O)[C@H](O)[C@@H]2O)C(=O)N1C |  |  |  |  | MIC | 20 clinical strains |  | 6.25–12.5 µg/mL
CCOC(=O)c1c(N)sc2sc(-c3ccc(Cl)cc3Cl)cc12 |  |  |  |  | MIC | H37Rv |  | 8.4 µM
COc1c2ccoc2c(S(=O)(=O)Nc2ccc(Cl)cc2)c2oc(C)cc(=O)c12 |  | 12.5 µg/mL | BACTEC |  | inhibition | H37Rv |  | -23%
C=C(NC(CC(C)C)C(=O)N1CCCC1C(=O)O)C1CCCN1C(=O)C(NC(=O)C(C)NC(=O)C(NC(=O)C(NC=O)C(C)CC)C(C)O)C(C)C |  |  | agar |  | MIC | H37Rv |  | 4 µg/mL
CCc1nc2ccccc2n1CCCCOc1ccccc1 |  |  | turbidity / fluorescence | Rv1339 V90M | fold resistance | H37Rv |  | 0.4
Cc1cccc(OC2C(=O)N(c3ccc(Cl)c(F)c3)C2c2ccc(OCC(=O)O)cc2)c1 |  |  | resazurin |  | MIC90 | H37Rv |  | >6.25 µg/mL
O=C(CC1Sc2ccccc2NC1=O)NNc1cc(Cl)ccc1Cl |  | 12.5 µg/mL | BACTEC |  | inhibition | H37Rv |  | 40%
Cc1nc2nc(S(=O)(=O)Nc3c(Br)ccc4cccnc34)nn2c2c1CCC2 |  |  | visual reading | INH RIF resistant | MIC50 | X59 |  | 2 µM
COCCN1CCN(C(=O)c2nc3cc(C(F)(F)F)cc([N+](=O)[O-])c3s2)CC1 |  |  | resazurin / absorbance | BTZ-resistant (C387G) | MIC80 | H37Rv |  | 64 µg/mL
N#Cc1c(N)sc2sc(-c3ccc(Cl)cc3)cc12 | multidrug-resistant |  |  |  | MIC | MDR-TB |  | 21.5 µM
Cc1c(C(F)(F)F)cc2nc(C3=N[C@H](C(=O)N4CCCC4)CO3)sc2c1[N+](=O)[O-] |  |  | resazurin / absorbance | Overexpressing Rv3790 (DprE1) | MIC80 | H37Rv |  | >64 µg/mL
CCCc1c2c([nH]c(=O)c1C)C(=O)c1[nH]c(=O)c(C)c(CCC)c1C2=O |  |  | resazurin / fluorescence | Streptomycin-resistant | MIC90 | H37Rv |  | 0.17 µg/mL
CO[C@H]1/C=C/O[C@@]2(C)Oc3c(C)c(O)c4c(O)c(c(/C=N/N5CCN(C)CC5)c(O)c4c3C2=O)NC(=O)/C(C)=C\C=C\[C@H](C)[C@H](O)[C@@H](C)[C@@H](O)[C@@H](C)[C@H](OC(C)=O)[C@@H]1C |  |  | broth dilution | Rifampicin-resistant | MIC80 | 19000 |  | >1.2 µM
O=C1c2cc3ccccc3cc2NC(O)c2cccn21 |  | 12.5 µg/mL | BACTEC |  | inhibition | H37Rv |  | -12%
CCOC(=O)c1cc(CN(C)c2ccc(OC(F)(F)F)cc2)on1 |  |  |  |  | MIC | H37Rv |  | 0.7 µM
CCC(C)C(C1=C(O)c2ccccc2C(=O)C1=O)C1=C(O)c2ccccc2C(=O)C1=O |  |  | BACTEC |  | MIC | H37Rv |  | ≥12.8 µg/mL
CCOC(=O)c1cc(-c2cccc(C)c2)on1 |  |  | resazurin |  | MIC | H37Rv |  | 1 µM
CC(C)N=c1cc2n(-c3ccc(Cl)cc3)c3ccccc3nc-2cc1Nc1ccc(Cl)cc1 | multidrug-resistant |  |  |  | MIC | 14 |  | 0.12 µg/mL
N#Cc1c(N)sc2sc(-c3ccc(Cl)cc3Cl)cc12 |  |  |  |  | MIC | H37Rv |  | 30.4 µM
CN[C@@H]1[C@H](O[C@H]2[C@H](O[C@H]3[C@H](O)[C@@H](O)[C@H](N=C(N)N)[C@@H](O)[C@@H]3N=C(N)N)O[C@@H](C)[C@]2(O)C=O)O[C@@H](CO)[C@H](O)[C@H]1O |  |  | broth dilution | Streptomycin-resistant | MIC80 | 35820 |  | >11 µM
C1CNCCN1.CCC1CN(C(=S)S)C(CC)CN1 |  |  | BACTEC |  | MIC bound | H37Rv |  | >12.5 µg/mL
CCc1nc2ccc(C)cc2n1CCCCSc1ccc(Cl)cc1 |  |  | turbidity / fluorescence | QcrB M342T | MIC90 | H37Rv |  | >100 µM
O=c1c2cccc(O)c2oc2cc(O)cc(O)c12 |  |  |  |  | MIC |  |  | 200 µg/mL
COc1c(N2CCNC(C)C2)c(F)cc2c(=O)c(C(=O)O)cn(C3CC3)c12 |  |  |  |  | MIC90 |  |  | 0.25–4 µg/mL
NNC(=O)c1ccccc1 |  |  |  |  | MIC | Erdman |  | 0.03 µg/mL
O=C(O)COc1ccc(C2C(Oc3ccc([N+](=O)[O-])cc3)C(=O)N2c2ccc(Cl)c(F)c2)cc1 |  | 6.25 µg/mL | resazurin |  | inhibition | H37Rv |  | 89%
CCc1nc2ccccc2n1CCCCOc1ccc(Cl)cc1 |  |  | turbidity / fluorescence | WT | MIC90 | H37Rv |  | 14 µM
Cc1cc(O)c(-c2ccccc2)c(=O)n1C1CCCCC1 |  |  |  |  | MIC | H37Ra |  | 64 µg/mL
COc1c(O)cc2oc3cc(O)cc(O)c3c(=O)c2c1OC |  |  |  |  | MIC |  |  | 10 µg/mL
N#Cc1c(N)sc2sc(-c3cccc4ccccc34)cc12 | multidrug-resistant |  |  |  | MIC | MDR-TB |  | 5.1 µM
Cc1cc(O)c(-c2ccccc2)c(=O)[nH]1 |  |  |  |  | MIC | H37Ra |  | 16–32 µg/mL
CN[C@@H]1[C@H](O[C@H]2[C@H](O[C@H]3[C@H](O)[C@@H](O)[C@H](N=C(N)N)[C@@H](O)[C@@H]3N=C(N)N)O[C@@H](C)[C@]2(O)C=O)O[C@@H](CO)[C@H](O)[C@H]1O |  |  | resazurin / fluorescence | Rifampicin-resistant | MIC90 | H37Rv |  | 0.27 µg/mL
COc1ccc(/C=C(/C#N)c2nc3ccccc3c(=O)[nH]2)cc1 |  |  | resazurin |  | MIC bound | H37Rv |  | >6.25 µg/mL
O=c1nc2c(ncn2Cc2ccccc2)c(-c2ccco2)n1Cc1ccccc1 |  |  |  |  | MIC | H37Rv |  | >12.5 µg/mL
N#CCCCCNC(=O)C1CCC(=O)N1 |  | 12.5 µg/mL | BACTEC |  | inhibition | H37Rv |  | 27%
CCc1nc2ccccc2n1CCCSc1ccc(C)cc1 |  |  | turbidity / fluorescence |  | MIC99 | H37Rv |  | 4.5 µM
O=[N+]([O-])c1cc(C(F)(F)F)cc2nc(C3=NCCO3)sc12 |  |  | resazurin / absorbance |  | MBC | H37Rv |  | 1 µg/mL
OC[C@H]1O[C@H](OC[C@H]2O[C@H](O[C@]3(CO)O[C@H](CO)[C@@H](O)[C@@H]3O)[C@H](O)[C@@H](O)[C@@H]2O)[C@H](O)[C@@H](O)[C@H]1O |  | 12.5 µg/mL | BACTEC |  | inhibition | H37Rv |  | -6%
O=c1c2c(O)cc(O)cc2oc2cc(O)c(O)c(O)c12 |  |  |  |  | MIC |  |  | 5 µg/mL
NC(=O)NC1C(C(N)=O)N(Cc2ccccc2)C(=O)N1Cc1ccccc1 |  |  | BACTEC |  | MIC bound | H37Rv |  | >12.5 µg/mL
Cc1cc(C2CCCC2)nc2c(C3CCCC3)cccc12 |  |  |  |  | MIC | H37Rv |  | 6.25 µg/mL
O=C1OCC(O)C(O)C(O)C(O)C1O |  |  | BACTEC |  | MIC | H37Rv |  | ≥12.5 µg/mL
CC(C)c1ccc(-c2cc3c(C#N)c(N)sc3s2)cc1 | multidrug-resistant |  |  |  | MIC | MDR-TB |  | 20.9 µM
CC(=O)c1c(O)c(C)c(O)c(Cc2c(O)c3c(c(C(=O)/C=C/c4ccccc4)c2O)OC(C)(C)C=C3)c1O |  | 12.5 µg/mL | BACTEC |  | inhibition | H37Rv |  | 27%
COC(=O)c1ccccc1S(=O)(=O)NC(=O)Nc1nc(C)cc(C)n1 |  |  |  |  | MIC | ATCC35801 |  | 3.6 µg/mL
FC(F)(F)c1cccc(-c2nc3nc(Cl)c(Cl)nc3[nH]2)c1 |  | 6.25 µg/mL | resazurin |  | inhibition | H37Rv |  | 85%
O=C(O)COc1ccc(C2C(Oc3ccc(Cl)cc3Cl)C(=O)N2c2ccc(Cl)c(F)c2)cc1 |  | 6.25 µg/mL | resazurin |  | inhibition | H37Rv |  | 100%
O=C(c1ccccc1)c1c(CC(O)c2cccnc2)n(C(=O)c2ccccc2)c2ccccc12 |  |  | BACTEC |  | MIC bound | H37Rv |  | >12.5 µg/mL
O=c1c2c(O)cc(O)cc2oc2c(O)ccc(O)c12 |  |  |  |  | MIC |  |  | 100 µg/mL
CC(C)N=c1cc2n(-c3ccc(Cl)cc3)c3ccccc3nc-2cc1Nc1ccc(Cl)cc1 |  |  |  |  | MIC | KM-R |  | ≤0.1 µg/mL
CCc1nc2ccc(C)cc2n1CCCNc1ccc(Br)c(C)c1 |  |  | turbidity / fluorescence | Rv1339 V90M | fold resistance | H37Rv |  | 0.9